A mixed list of measured activities; the numbers were collected in NIAID ChemDB.

Common to all: tests in culture; species: HIV-1; measure: EC50

Blank or dashed fields: not listed here.

smiles,read by,changes,strain,cells,setting,result
O=C(N/N=C/c1ccc(O)cc1)Nc1cccc2nsnc12,cell fusion / luminescence,HXBc2-YU2 V3 chimeras,YU2,Cf2Th-CD4/CCR5,pseudotyped,20.2 µM
Nc1nc(N)c2ncn([C@@H]3O[C@H](CO)C[C@@H]3F)c2n1,p24,,LAI,PBL(PHA STIM.) + PBL,,<6.4 µM
CC(/C=C/C=C\C=C\C=C(/C)C(=O)NC(C)CO)=C\C(C)C(O)/C(C)=C/C(C)CCc1ccccc1,syncytia,,IIIB,MOLT-4/IIIB + MOLT-4,,>6.6 µM
C=C1CN(S(=O)(=O)c2ccc(C)cc2)CCCN(Cc2ccccc2)CCCN(S(=O)(=O)c2ccc(C)cc2)C1,p24,,BaL,Monocytes/macrophages,,0.96 µM
O=c1[nH]c(=O)n([C@H]2C[C@H](O)[C@@H](CO)O2)cc1F,,,,CEM + CEM TK-,,9.1 µM
CCN(CC)C(=O)OCC1CN(C(C#N)(c2ccccc2)c2ccccc2)CCN1C(=O)c1cc(OC)c(OC)c(OC)c1,RT activity,,BaL,MDM,,>10 µM
O=C(O)c1cc(-n2cccc2)ccc1Cl,luciferase / cell fusion,,92US657 R5 CLADE B,PBMC/5.25M7,,38.11 µM
COc1cccc(CN2CCNC(=O)C3=C2c2cc(OC)ccc2CC3)c1,p24,,,OM-10.1,,0.11 µM
C=C(C)[C@@H]1CC[C@]2(C(=O)NCCCCCCCC(=O)N[C@@H](CC(C)C)[C@@H](O)CC(=O)O)CC[C@]3(C)[C@H](CC[C@@H]4[C@@]5(C)CC[C@H](O)C(C)(C)[C@@H]5CC[C@]43C)[C@@H]12,syncytia,R22A I84S,LAI-R(GP41-R22A I84S),HeLa P4 + HeLa,,>30 µM
COC(=O)[C@H](C)NP(=O)(OC[C@@H]1C=C[C@H](n2cc(C)c(=O)[nH]c2=O)O1)Oc1ccccc1,p24,,IIIB,CEM + CEM TK-,,0.145 µM
CCN(CC)C(=O)OCC1CN(Cc2ccccc2)CCN1Cc1ccccc1,RT activity,,BaL,MDM,,2 µM
Cc1cc(C)cc(C(=O)c2cc(Cl)ccc2OCC(=O)Nc2ccc(S(N)(=O)=O)cc2C)c1,β-galactosidase,RT-G190A,HXB2,HeLa + HELA CD4+,,<0.01 µM
COC(=O)[C@H](CCCN=C(N)N)NC(=O)CCNC(=O)CN(CCNC(=O)CN(CCNC(=O)OCc1ccccc1)C(=O)Cn1cnc2c(N)ncnc21)C(=O)Cn1cnc2c(=O)[nH]c(N)nc21,cytopathic effect / MTT,,,PBMC/IIIB + PBMC,,140 µM
O=C(OCc1ccccc1)N1OCCC1n1cc(COCc2cn(CCO)nn2)c(=O)[nH]c1=O,fluorescence,,NL4-3,CEM-GFP,,103 µM
C[C@@H](O)[C@H](NC(=O)[C@H](Cc1ccc(O)cc1)NC(=O)[C@H](CC(N)=O)NC(=O)[C@@H](NC(=O)[C@@H](N)CO)[C@@H](C)O)C(=O)O,RT activity,,LAV,A3.01,,<0.001 µM
O=C(NCc1ccc(F)cc1F)c1cn2c(c(O)c1=O)C(=O)N(CCCCO)CC2,luciferase,G118R,,HEK 293,,0.9638 µM
CCOC(=O)c1cc(C(=O)NCc2ccccn2)n2ccc(C(=O)c3ccco3)cc12,p24 / antigen,,,H9,,42.1 µM
NC(N)=NCCC[C@H](NC(=O)CCCCCNC(=O)CN(CCNC(=O)CN(CCNC(=O)OCc1ccccc1)C(=O)Cn1cnc2c(=O)[nH]c(N)nc21)C(=O)Cn1cnc2c(N)ncnc21)C(=O)O,cytopathic effect / MTT,,,PBMC/IIIB + PBMC,,>200 µM
CC(C)(C)NC(=O)[C@@H]1CCCN1C(=O)[C@@H](O)[C@H](Cc1ccccc1)NC(=O)[C@H](CC(N)=O)NC(=O)OCc1ccccc1,RT activity,,C-3,MOLT-4,,~1 µM
O=C(N[C@H]1c2ccccc2C[C@H]1O)[C@H](Cc1ccccc1)C[C@H](O)CN1C(=O)N(Cc2cccnc2)C[C@@H]1Cc1ccccc1,,,,MT-4 + MT4,,2.2–10 µM
CCc1ccc(-c2c(C(OC3(CC)CC3)C(=O)O)c(C)nc3ccc(Cl)cc23)cc1,luciferase / reporter gene,,,C8166,,<20 µM
COc1ccc2c(c1)C1=C(CC2)C(=O)NCCN1CC(C)C,p24,,,OM-10.1,,0.7 µM
Cc1cc(OCCCS(N)(=O)=O)ccc1NC(=O)COc1ccc(Cl)cc1C(=O)c1cc(F)cc(C(F)(F)F)c1,β-galactosidase,RT-Y181C,HXB2,HeLa + HELA CD4+,,<0.01 µM
COC(=O)[C@H](CCCN=C(N)N)NC(=O)CCNC(=O)CN(CCNC(=O)CN(CCNC(=O)OCc1ccccc1)C(=O)Cn1cnc2c(=O)[nH]c(N)nc21)C(=O)Cn1cnc2c(N)ncnc21,cytopathic effect / MTT,,,PBMC/IIIB + PBMC,,>200 µM
Cc1cc(CNC(=O)c2nc3n(c(=O)c2O)[C@@H](C)COC[C@H]3N(C)C(=O)C(=O)N(C)C)ccc1F,single cycle,E92Q,,HeLa P4-2,,0.001 µM
COc1cccc(CN(C)c2cccc(-c3ccc4ccn(Cc5cccc(C(=O)O)c5)c4c3)c2)c1,entry / luminescence,,IIIB,MAGI-CCR5,,1.6 µM
Cc1cc(C#N)cc(C(=O)c2cc(Cl)ccc2OCC(=O)Nc2ccc(OCCCN3CC=CC3)cc2C)c1,β-galactosidase,RT-Y181C,HXB2,HeLa + HELA CD4+,,<0.01 µM
COC(=O)[C@H](CCCN=C(N)N)NC(=O)CCCCCNC(=O)CN(CCNC(=O)CN(CCNC(=O)OCc1ccccc1)C(=O)Cn1cnc2c(=O)[nH]c(N)nc21)C(=O)Cn1cnc2c(N)ncnc21,cytopathic effect / MTT,,,PBMC/IIIB + PBMC,,20 µM
CCCC(C(=O)O)c1c(-c2ccc(Cl)cc2)c2cc(Br)ccc2oc1=O,luciferase / reporter gene,,,C8166,,<20 µM
COc1cc(/C=C/C(=O)OC(Cc2cc(OC)c(OC)c(OC)c2)C(=O)O)ccc1O,MTT,,,MDM,,8.24 µM
Cc1cc(CNC(=O)c2nc3n(c(=O)c2O)[C@H](C)COC[C@H]3N(C)C(=O)C(=O)N(C)C)ccc1F,single cycle,N155H,,HeLa P4-2,,0.008 µM
COC(=O)C(C)NP(=O)(OC[C@H]1S[C@@H](n2cc(F)c(=O)[nH]c2=O)C[C@@H]1O)Oc1ccccc1,,,,CEM + CEM TK-,,>100 µM
CCCC(C(=O)O)c1c(C)nc2ccc(Cl)cc2c1-c1ccc2ccccc2c1,luciferase / reporter gene,,,C8166,,<20 µM
O=C(N[C@H]1c2ccccc2C[C@H]1O)[C@H](Cc1ccccc1)C[C@H](O)CN1C(=O)N(Cc2cccc(F)c2)C[C@@H]1Cc1ccccc1,,,,MT-4 + MT4,,2.2–10 µM
COCCCn1ccn2cc(C(=O)NCc3ccc(F)cc3F)c(=O)c(O)c2c1=O,luciferase,G118R,,HEK 293,,0.0859 µM
COC(=O)[C@H](C)NP(=O)(OC[C@@H]1C=C[C@H](n2cc(C)c(=O)[nH]c2=O)O1)Oc1ccc(OC)cc1,RT activity,,IIIB,CEM + CEM TK-,,0.32 µM
Cc1nc2ccc(Br)cc2c(-c2ccc(Cl)cc2)c1C(OC(C)(C)C)C(=O)O,luciferase / reporter gene,,,C8166,,<20 µM
CC[C@@H]1COC[C@@H](N(C)C(=O)C(=O)N(C)C)c2nc(C(=O)NCc3ccc(F)cc3)c(O)c(=O)n21,single cycle,G140S/Q148H,,HeLa P4-2,,0.018 µM
Cc1cc(S(N)(=O)=O)ccc1NC(=O)COc1ccc(Cl)cc1C(=O)c1cc(F)cc(F)c1,β-galactosidase,RT-K103N Y181C,HXB2 (RT-K103N Y181C) Recombinant,HeLa + HELA CD4+,,0.011–0.1 µM
CCN(CC)C(=O)OCC1CN(C(=O)c2cc(OC)c(O)c(OC)c2)CCN1C(=O)c1cc(OC)c(O)c(OC)c1,RT activity,,BaL,MDM,,35 µM
CC[C@H]1COC[C@@H](N(C)C(=O)C(=O)N(C)C)c2nc(C(=O)NCc3ccc(F)cc3)c(O)c(=O)n21,single cycle,Q148R,,HeLa P4-2,,0.001 µM
CCCCNP(=O)(OC[C@@H]1O[C@H](n2cc(C)c(=O)[nH]c2=O)C[C@H]1N=[N+]=[N-])OC[C@H]1O[C@@H](n2cc(C)c(=O)[nH]c2=O)C[C@@H]1N=[N+]=[N-],,,,CEM + CEM TK-,,>10 µM
NS(=O)(=O)c1ccc(NC(=O)CSc2nnc(C(F)(F)F)n2-c2ccc(Cl)c3ccccc23)c(Cl)c1,luciferase,RT-Y188L,NL4-3,HeLa + HeLa-JC53,,0.041 µM
CCCCCC=C(c1cc(Cl)c(O)c(C(=O)NO)c1)c1cc(Cl)c(O)c(C(=O)NO)c1,p24,,WEJO,PBLC,,112 µM
COc1ccc2ccc3c(c2c1)SCC(C)NC3=O,p24,,,OM-10.1,,3.1 µM
C=C1CN(S(=O)(=O)c2ccc(C)cc2)CCCN(Cc2ccccc2)CCCN(S(=O)(=O)c2ccc(C)cc2)C1,cytopathic effect,,NL4-3,SupT1,,3.2 µM
CCN(CC)CCNc1ccnc(NCCCNC(=O)c2cccc(C(=O)NCCCNc3nccc(NCCN(CC)CC)n3)c2)n1,ELISA,,,HUT34/HIV-1 + HUT34,,>10 µM
Cc1nnc(SCC(=O)Nc2ccccc2Br)n1-c1cccc2cccnc12,luciferase,RT-Y188L,NL4-3,HeLa + HeLa-JC53,,4.2 µM
CCN(CC)C(=O)OCC1CN(C(c2ccccc2)c2ccccn2)CCN1C(=O)c1cc(OC)c(OC)c(OC)c1,RT activity,,BaL,MDM,,>10 µM
Cc1nc2ccc(Cl)cc2c(-c2ccc(Cl)cc2)c1C(OC(C)C)C(=O)O,luciferase / reporter gene,,,C8166,,<20 µM
Cc1cc(CNC(=O)c2nc3n(c(=O)c2O)[C@@H](C)COC[C@@H]3N(C)C(=O)C(=O)N(C)C)ccc1F,single cycle,Y143R,,HeLa P4-2,,0.002 µM
Cc1cc(S(N)(=O)=O)ccc1NC(=O)COc1ccc(Cl)cc1C(=O)c1cc(Cl)cc(C#N)c1,β-galactosidase,RT-K103N V108I,HXB2,HeLa + HELA CD4+,,<0.01 µM
O=C(NCc1ccc(F)cc1F)c1cn2cc[nH]c(=O)c2c(O)c1=O,luciferase,S230N,,HEK 293,,0.0845 µM
CC(C)(C)OC(=O)c1cccc(Cn2ccc3ccc(-c4ccc5ccn(Cc6cccc(C(=O)O)c6)c5c4)cc32)c1,entry / luminescence,,IIIB,MAGI-CCR5,,0.2 µM
Cc1nnc(SCC(=O)Nc2ccc(S(N)(=O)=O)cc2Cl)n1-c1ccc(N(C)C)c2ccccc12,luciferase,RT-Y188L,NL4-3,HeLa + HeLa-JC53,,0.088 µM
Cc1ccnc2c1NC(=O)c1cccnc1N2C1CC1,fluorescence,,NL4-3,CEM-GFP,,0.14 µM
Cc1cc(S(N)(=O)=O)ccc1NC(=O)COc1ccc(Cl)cc1C(=O)c1cccc(C#N)c1,β-galactosidase,RT-K103N P225H,HXB2,HeLa + HELA CD4+,,<0.01 µM
COc1cc(CN2C[C@H](Cc3ccccc3)N(C[C@@H](O)C[C@@H](Cc3ccccc3)C(=O)N[C@H]3c4ccccc4C[C@H]3O)C2=O)cc(OC)c1OC,,,,MT-4 + MT4,,2.2–10 µM
CCOC(=O)c1cc(C(=O)c2ccccc2)n2cccc(C(=O)NCc3ccccn3)c12,p24 / antigen,,,H9,,69.7 µM
CCN(CC)C(=O)OCC1CN(C(=O)c2cc(OC)c(OC)c(OC)c2)CCN1C(=O)c1cc(OC)c(OC)c(OC)c1,RT activity,,BaL,MDM,,11 µM
Cc1nc2ccc(Cl)cc2c(-c2cc3ccccc3s2)c1C(OC(C)C)C(=O)O,luciferase / reporter gene,,,C8166,,<20 µM
CC(C)(C)NC(=O)[C@@H]1CN(Cc2cccnc2)CCN1C[C@@H](O)C[C@@H](Cc1ccccc1)C(=O)N[C@H]1c2ccccc2C[C@H]1O,p24 / ELISA,,IIIB,H9(HIV-1(IIIB)),,0.76 µM
CC[C@H]1COC[C@H](N(C)C(=O)C(=O)N(C)C)c2nc(C(=O)NCc3ccc(F)cc3)c(O)c(=O)n21,single cycle,N155H,,HeLa P4-2,,0.003 µM
CCOC(=O)c1cc(C(=O)c2ccccc2)n2ccc(C(=O)N[C@@H](C(=O)OC)c3ccccc3)cc12,p24 / antigen,,,H9,,49.5 µM
C[C@@H](O)[C@H](N)C(=O)N[C@H](C(=O)N[C@@H](CO)C(=O)N[C@@H](Cc1ccc(O)cc1)C(=O)N[C@H](C(=O)O)[C@@H](C)O)[C@@H](C)O,RT activity,,LAV,A3.01,,<0.001 µM
Cc1cc(S(N)(=O)=O)ccc1NC(=O)COc1ccc(Cl)cc1C(=O)c1cc(F)cc(C#N)c1,β-galactosidase,RT-K103N,HXB2,HeLa + HELA CD4+,,<0.01 µM
COc1ccc2ccc3c(c2c1)OC[C@@H](C)NC3=O,p24,,,OM-10.1,,0.09 µM
CC(C)CCC[C@@H](C)[C@H]1CC[C@H]2[C@@H]3CC[C@H]4CC(=C(c5cc(Cl)c(O)c(C(=O)O)c5)c5cc(Cl)c(O)c(C(=O)O)c5)CC[C@]4(C)[C@H]3CC[C@]12C,p24,,WEJO,PBLC,,59.3 µM
Nc1nc2c(ncn2[C@H]2CC[C@@H](CO)O2)c(=O)[nH]1,p24,,LAI,PBL(PHA STIM.) + PBL,,<2.5 µM
CCOC(=O)C(C)NP(=O)(OC[C@@H]1O[C@H](n2cc(C)c(=O)[nH]c2=O)C[C@H]1N=[N+]=[N-])OC[C@H]1O[C@@H](n2cc(C)c(=O)[nH]c2=O)C[C@@H]1N=[N+]=[N-],,,,CEM + CEM TK-,,>10 µM

Repeating the first 5 entries:

smiles	read by	changes	strain	cells	setting	result
O=C(N/N=C/c1ccc(O)cc1)Nc1cccc2nsnc12	cell fusion / luminescence	HXBc2-YU2 V3 chimeras	YU2	Cf2Th-CD4/CCR5	pseudotyped	20.2 µM
Nc1nc(N)c2ncn([C@@H]3O[C@H](CO)C[C@@H]3F)c2n1	p24		LAI	PBL(PHA STIM.) + PBL		<6.4 µM
CC(/C=C/C=C\C=C\C=C(/C)C(=O)NC(C)CO)=C\C(C)C(O)/C(C)=C/C(C)CCc1ccccc1	syncytia		IIIB	MOLT-4/IIIB + MOLT-4		>6.6 µM
C=C1CN(S(=O)(=O)c2ccc(C)cc2)CCCN(Cc2ccccc2)CCCN(S(=O)(=O)c2ccc(C)cc2)C1	p24		BaL	Monocytes/macrophages		0.96 µM
O=c1[nH]c(=O)n([C@H]2C[C@H](O)[C@@H](CO)O2)cc1F				CEM + CEM TK-		9.1 µM

a–b is a range or a potency band. ECn: concentration that inhibits the pathogen or its effect by n%. Conditions beyond the fields shown may differ between rows.